Pooled drug test results. Numbers come from NIAID ChemDB, via PubChem.

All rows: tests in culture; agent: Hepatitis B virus

Two numbers with a dash give a range or band. Blank or dashed fields: not listed here. ECn is the concentration giving n% inhibition of infection, replication or growth. Neighbouring rows are from separate reports. Inhibition is in % at the dose shown (toxicity tests: loss of growth or viability).

| compound | strain or isolate | cells | method | endpoint | tested at | result |
|---|---|---|---|---|---|---|
| CCCCCCCCCCCCCC(=O)Nc1nc(N)nc2c1ncn2[C@H]1CO[C@@H](CO)O1 | - | HepAD38 | PCR | EC90 | - | >10 µM |
| NC(=O)c1c(N)sc2c1CCCCC2 | gtD | Huh7 | - | inhibition | 10 µM | 43% |
| C.O=C(Nc1ccc(F)c(F)c1)c1cc(S(=O)(=O)N2CC(F)(F)C2)ccc1F | - | HepAD38 | PCR | EC90 | - | 6.3 µM |
| CCOC(=O)[C@H](C)NP(=O)(OC[C@@H]1OC[C@H](n2cnc3c(N)nc(N)nc32)O1)Oc1ccccc1 | - | HepAD38 | PCR | EC90 | - | 2.8 µM |
| Nc1ccn([C@@H]2CS[C@H](CO)O2)c(=O)n1 | - | HepAD38 | - | EC90 | - | 0.3 µM |
| COc1ccc(-n2c(C(=O)NCc3ccc(F)cc3C)c3n(c2=O)CCN(C(=O)c2ccc(Br)c(Cl)c2)C3)cc1 | - | HepG2.117 | PCR | EC50 | - | 0.1–0.5 µM |
| Cc1c(C(=O)C(=O)NC(C)(C)c2nccs2)c(C)n(C)c1C(=O)Nc1ccc(F)c(C#N)c1 | - | HepG2.2.15 | PCR | EC50 | - | 0.001–0.0099 µM |
| C[C@H]1Cn2c(c(C(=O)NCc3ccccc3-n3cncn3)n(-c3ccc(OC4CC4)cc3)c2=O)CN1C(=O)c1ccc(Br)c(Cl)c1 | - | HepG2.117 | PCR | EC50 | - | <0.1 µM |
| Cc1cc(C)c(C#N)c(=N)o1 | gtA | Huh7 | - | inhibition | 10 µM | >43% |
| C#CC1(NC(=O)C(=O)c2c(C)c(C(=O)Nc3ccc(F)c(C(F)(F)F)c3)n(C)c2C)CC1O | - | HepG2.2.15 | PCR | EC50 | - | <0.001 µM |
| CCCCCCCCCCCCCC(=O)Nc1nc(N)nc2c1ncn2[C@H]1CO[C@@H](COP(=O)(N[C@@H](C)C(=O)OCC)Oc2ccccc2)O1 | - | HepAD38 | PCR | EC90 | - | 8.8 µM |
| COc1nc(N)nc2c1ncn2[C@H]1CO[C@@H](CO)O1 | Wild | AD38 | - | EC90 | - | >100 µM |
| Cc1c(C(=O)C(=O)NC(C)(C)c2ccncc2)c(C)n(C)c1C(=O)Nc1ccc(F)c(C(F)(F)F)c1 | - | HepG2.2.15 | PCR | EC50 | - | 0.001–0.0099 µM |
| CCOC(=O)[C@H](C)NP(=O)(OC[C@@H]1OC[C@H](n2cnc3c(OC)nc(N)nc32)O1)Oc1ccccc1 | Wild | AD38 | - | EC90 | - | 2.2 µM |
| C#CC1(NC(=O)C(=O)c2c(C)c(C(=O)Nc3ccc(F)c(C#N)c3)n(C)c2Cl)CC1(F)F | - | HepG2.2.15 | PCR | EC50 | - | <0.001 µM |
| CCOC(=O)c1sc(NC(=O)CSc2nnc(Cc3ccccc3)o2)c(C#N)c1C | gtD | Huh7 | - | inhibition | 10 µM | >43% |
| C[C@@H]1O[C@@H](O[C@@H]2Cc3c(O)cc(O)cc3O[C@@H]2c2ccc(O)c(O)c2)[C@H](O)[C@H](O)[C@H]1O | - | HepG2.2.15 | ELISA / antigen | inhibition | 30 µM | 71.2% |
| O=C(NCc1ccccc1)c1c2n(c(=O)n1-c1ccc3[nH]ncc3c1)CCN(C(=O)c1ccc(Br)c(Cl)c1)C2 | - | HepG2.117 | PCR | EC50 | - | 0.5–5 µM |
| COC(=O)Oc1nsnc1N1CCOCC1 | gtD | Huh7 | - | inhibition | 10 µM | >43% |
| Nc1nc(=O)c2ncn([C@@H]3O[C@H](CO)[C@@H](O)[C@H]3O)c2c(=O)[nH]1 | - | 2.2.15 | - | inhibition | 10 µM | 10% |
| CCCCCCCCCCCC(=O)Nc1nc(N)nc2c1ncn2[C@H]1CO[C@@H](CO)O1 | - | HepAD38 | PCR | EC90 | - | >10 µM |
| CCOC(=O)[C@H](C)NP(=O)(OC[C@@H]1OC[C@H](n2cnc3c(NC4CC4)nc(N)nc32)O1)Oc1ccccc1 | Wild | AD38 | - | EC90 | - | <10 µM |
| COc1ccc(-n2c(C(=O)N[C@H](C)c3ccccc3)c3n(c2=O)CCN(C(=O)c2ccc(Cl)c(Cl)c2)C3)cc1 | - | HepG2.117 | PCR | EC50 | - | 0.5–5 µM |
| CCCCCCCCCCCCCCCC(=O)Nc1nc(N)nc2c1ncn2[C@H]1CO[C@@H](CO)O1 | - | HepAD38 | PCR | EC90 | - | >10 µM |
| O=C(O[C@@H]1Cc2c(O)cc(O)cc2O[C@@H]1c1cc(O)c(O)c(O)c1)c1cc(O)c(O)c(O)c1 | - | - | PCR | inhibition | 50 µM | 63.4% |